This data set in a line: Membrane permeability and adhesion assay (1H CPMG NMR; PF and MAF). The note with it: 1 = most; for MAF rank: 8 = least membrane adherent; for PF rank: 8 = least phospholipid membrane permeable. The text has this:
Finally, in line with our previous work, we moved to characterise the membrane adhesion and permeation events of 1–5 and co-formulations a–j with PE : PG 1 : 1 synthetic phospholipid vesicles.[53] This vesicle composition was prioritised for further analysis as this composition acts as a model for an AMR resistant strain of the ESKAPE pathogen P. aeruginosa,[54,55] categorised as high priority by the WHO.[33] As summarised in Table 4, membrane permeation (PF) and membrane adhesion factors (MAF) for the SSA anionic components were calculated through the use of ^1H CPMG NMR spectroscopy experiments, using vesicles produced by extrusion through a 1000 nm polycarbonate membrane.
Here the lower the MAF, the stronger the adhesion of the molecule to the surface of the phospholipid membrane. […] A PF value of 1 or above provides evidence of SSA permeation. The greater this value above 1, the greater the membrane permeation potential of a compound. […]
Membrane permeability and adhesion assay, determining membrane adhesion factors (MAF) and permeation factors (PF): Lipid vesicles of DOPE and PG, in a 1:1 ratio by weight were prepared as described in ‘preparation of vesicles’ with one alteration. Here vesicles were extruded 21 times through a 1000 nm polycarbonate membrane. NMR samples were prepared containing: SSA ( 200 µM), 95% HEPES buffer (HEPES (10 mM), NaCl (10 mM)) and 5% D 2O, and sodium trimethylsilylpropanesulfonate - DSS (1 µM). In order to calculate the PF and MAF the paramagnetic relaxation enhancement agent (PRE), gadodiamide (1 mM) was added to the NMR mixture. Where lipid vesicles were present in the NMR mixture, vesi cles were added at a concentration of 0.1 mg/mL.
All 1H CPMG NMR spectra were collected with a spin -lock time of 150 mS on a Bruker Avance III spectrometer equipped with a cold probe at a proton frequency of 600 MHz and recorded at 298 K.
Peak intensities were measured using MestReNova (Mestrelab Research). The MAF and PF were determined using previously published method. 3 For individual SSAs, MAF and PF were calculated using all aromatic CH resonances. For SSA co -formulations an average MAF and PF were calculated using all aromatic CH resonances. For individual components of the SSA co -formulations, the resonances for the different SSA anions were treated independently of one another.

In the case of `O=c1c(NCCCS(=O)(=O)O)c(Nc2ccc(C(F)(F)F)cc2)c1=O` [SSA 4], the MAF rank entry is given as “=2” and the PF rank is 1.
Turning to `O=C(O)CNc1c(Nc2ccc(C(F)(F)F)cc2)c(=O)c1=O` [SSA 5], the MAF rank result is “=2” and the PF rank was 7.
`O=S(=O)(O)CCCNC(=S)Nc1ccc(C(F)(F)F)cc1` [SSA 1] returned an MAF rank of 8 and a PF rank of 4.
`Cc1ccc2nc(-c3ccc(NC(=O)NCS(=O)(=O)O)cc3)sc2c1` [SSA 3] yielded an MAF rank of 1 and a PF rank of 8.
On to `O=C(O)CNC(=S)Nc1ccc(C(F)(F)F)cc1` [SSA 2], for which the MAF rank is listed as 6 and the PF rank is 5.
